A mixed list of measured activities; the numbers were collected in NIAID ChemDB.

Common to all: growth or infection tests; agent: Candida albicans; read-out: MIC50

An empty or dashed field is not shown. Neighbouring rows are from separate reports. MIC50, MIC90 and the like: level of inhibition, or share of isolates inhibited.

CC(C)=CCCNC(N)=NCCCCCCCCCNCCCCCCCN=C(N)N ; strain: 53T ; value: 80 µM
CCC(C)n1ncn(-c2ccc(N3CCN(c4ccc(OC[C@H]5CO[C@](Cn6cncn6)(c6ccc(Cl)cc6Cl)O5)cc4)CC3)cc2)c1=O ; strain: 37 isolates ; value: 0.0313 µg/mL
Nc1[nH]c(=O)ncc1F ; strain: Fluconazole-susceptible ; value: 0.12 µg/mL
CC(C)=CCN=C(N)NCCCCCCCN1CCCCCCCCN=C(N)NC1=O ; strain: ATCC 60193 ; value: 40 µM
C[C@@H](c1ncncc1F)[C@](O)(Cn1cncn1)c1ccc(F)cc1F ; strain: Isolate M27-T-micro ; setting: 48 h ; value: 0.09 µg/mL
C=CCSS(=O)CC=C ; strain: Clinical Isolate 2605 ; read by: broth dilution ; value: 0.39 µg/mL
Cc1ccc(-c2c3c(N)c4c(nc3nc3c2c(C)nn3-c2ccccc2)CCCCC4)cc1 ; strain: CCC 130 ; read by: broth dilution / absorbance ; value: 31.2 µg/mL
NC(N)=NCCCCCCCNCCCCCCCCCNC(N)=NCC1CC1 ; strain: 15T ; value: 20 µM
Cc1ccc(-c2c3c(N)c4c(nc3nc3c2c(C)nn3-c2ccccc2)CCCC4)cc1 ; strain: CCC 129 ; read by: broth dilution / absorbance ; value: 31.2 µg/mL
NC(N)=NCCCCCCCCCNCCCCCCCN=C(N)N ; strain: ATCC 60193 ; value: 80 µM
Cc1nn(-c2ccccc2)c2nc3nc4c(c(N)c3c(-c3ccc(Cl)cc3)c12)CCC4 ; strain: ATCC 10231 ; read by: broth dilution / absorbance ; value: 125 µg/mL
CCC(C)CC(C)CCCCCCCCC(=O)N[C@H]1C[C@@H](O)[C@H](NCCN)NC(=O)[C@@H]2[C@@H](O)CCN2C(=O)[C@H]([C@H](O)CCN)NC(=O)[C@H]([C@H](O)[C@@H](O)c2ccc(O)cc2)NC(=O)[C@@H]2C[C@@H](O)CN2C(=O)[C@H]([C@@H](C)O)NC1=O ; strain: 10 isolates azole-resistant ; value: 0.2 µg/mL
N=C(N)N(CCCCCCCCCN=C(N)N)CCCCCCCN=C(N)N ; strain: 53T ; value: 20 µM
Cc1ccc(-c2c3c(N)c4c(nc3nc3c2c(C)nn3-c2ccccc2)CCC4)cc1 ; strain: CCC 125 ; read by: broth dilution / absorbance ; value: 62.5 µg/mL
Nc1[nH]c(=O)ncc1F ; strain: 50 isolates ; value: 0.16 µg/mL

Again, the opening 2 rows:

| structure | strain | read by | setting | value |
|---|---|---|---|---|
| CC(C)=CCCNC(N)=NCCCCCCCCCNCCCCCCCN=C(N)N | 53T | - | - | 80 µM |
| CCC(C)n1ncn(-c2ccc(N3CCN(c4ccc(OC[C@H]5CO[C@](Cn6cncn6)(c6ccc(Cl)cc6Cl)O5)cc4)CC3)cc2)c1=O | 37 isolates | - | - | 0.0313 µg/mL |